This data set relates to DENV-2 16681 strain. Briefly: DENV-2 antiviral assay (eGFP fluorescence, Vero cells). Format: cell-based, Dengue virus. The note with it: SI=CC50/EC50, DENV-2 antiviral assay. Here is the method:
The antiviral activity of all the compounds of the invention was tested against the DENV-2 16681 strain which was labeled with enhanced green fluorescent protein (eGPF). The culture medium consists of minimal essential medium supplemented with 2% of heat-inactivated fetal calf serum, 0.04% gentamycin (50 mg/mL) and 2 mM of L-glutamine. Vero cells, obtained from ECACC, were suspended in culture medium and 25 μL was added to 384-well plates (2500 cells/well), which already contain the antiviral compounds. Typically, these plates contain a 5-fold serial dilution of 9 dilution steps of the test compound at 200 times the final concentration in 100% DMSO (200 nL). […] Finally, each plate contains wells which are assigned as virus controls (containing cells and virus in the absence of compound), cell controls (containing cells in the absence of virus and compound) and medium controls (containing medium in the absence of cells, virus and compounds). To the wells assigned as medium control, 25 μL of culture medium was added instead of Vero cells. Once the cells were added to the plates, the plates were incubated for 30 minutes at room temperature to allow the cells to distribute evenly within the wells. Next, the plates were incubated in a fully humidified incubator (37° C., 5% CO2) until the next day. Then, DENV-2 strain 16681, labeled with eGFP, was added at a multiplicity of infection (MOI) of 0.5. Therefore, 15 μL of virus suspension was added to all the wells containing test compound and to the wells assigned as virus control. In parallel, 15 μL of culture medium was added to the medium and cell controls. Next, the plates were incubated for 3 days in a fully humidified incubator (37° C., 5% CO2). At the day of the read out, the eGFP fluorescence was measured using an automated fluorescence microscope at 488 nm (blue laser). Using an in-house LIMS system, inhibition dose response curves for each compound were calculated and the half maximal effective concentration (EC50) was determined. Therefore, the percent inhibition (I) for every test concentration is calculated using the following formula: I=100*(ST-SCC)/(SVC-SCC), ST, SCC and SVC are the amount of eGFP signal in the test compound, cell control and virus control wells, respectively. The EC50 represents the concentration of a compound at which the virus replication is inhibited with 50%, as measured by a 50% reduction of the eGFP fluorescent intensity compared to the virus control. The EC50 is calculated using linear interpolation (Table 1).
In turn, `COc1cc(NC(C(=O)N2CCc3cc(F)c(C(F)(F)F)cc32)c2ccc(Cl)cc2OCCO)cc(-n2cncn2)c1` (racemic) [Compound 7, 2-(4-chloro-2-(2-hydroxyethoxy)phenyl)-1-(5-fluoro-6-(trifluoromethyl)indolin-1-yl)-2-((3-methoxy-5-(1H-1,2,4-triazol-1-yl)phenyl)amino)ethanone] came in with an SI of 3410. In the case of `COc1cc(NC(C(=O)N2CCc3cc(OC)c(C(F)(F)F)cc32)c2ccc(F)cc2OCCO)cc(-n2cncn2)c1` (racemic) [Compound 2, 2-(4-fluoro-2-(2-hydroxyethoxy)phenyl)-2-((3-methoxy-5-(1H-1,2,4-triazol-1-yl)phenyl)amino)-1-(5-methoxy-6-(trifluoromethyl)indolin-1-yl)ethanone], the SI was 4000. `COc1cc(NC(C(=O)N2CCc3cc(OC)c(C(F)(F)F)cc32)c2ccc(Cl)cc2OCCCC(=O)O)cc(-n2cncn2)c1` (single isomer, unassigned) [Compound 12B] registered an SI of 37. To `COc1cc(NC(C(=O)N2CCc3cc(F)c(OC(F)(F)F)cc32)c2ccc(Cl)cc2OCCCC(=O)O)cc(-n2cncn2)c1` (single isomer, unassigned) [Compound 15A] belongs 1970; to `COc1cc(NC(C(=O)N2CCc3ccc(OC(F)(F)F)cc32)c2ccc(Cl)cc2OCCCC(=O)O)cc(-n2cncn2)c1` (single isomer, unassigned) [Compound 13B], 972; to `COc1cc(NC(C(=O)N2CCc3ccc(OC(F)(F)F)cc32)c2ccc(Cl)cc2OCCCC(=O)O)cc(-n2cncn2)c1` (racemic) [Compound 13, 4-(5-chloro-2-(1-((3-methoxy-5-(1H-1,2,4-triazol-1-yl)phenyl)amino)-2-oxo-2-(6-(trifluoromethoxy)indolin-1-yl)ethyl)phenoxy)butanoic acid], 59500. As for `COc1cc(NC(C(=O)N2CCc3ccc(OC(F)(F)F)cc32)c2ccc(Cl)cc2OCCC(C)(C)C(=O)O)cc(-n2cncn2)c1` (single isomer, unassigned) [Compound 14A], the SI is given as 22. To `COc1cc(NC(C(=O)N2CCc3c(C)cc(OC(F)(F)F)cc32)c2ccc(Cl)cc2OCCCC(=O)O)cc(-n2cncn2)c1` (racemic) [Compound 16, 4-(5-chloro-2-(1-((3-methoxy-5-(1H-1,2,4-triazol-1-yl)phenyl)amino)-2-(4-methyl-6-(trifluoromethoxy)indolin-1-yl)-2-oxoethyl)phenoxy)butanoic acid] belongs 95800; to `COc1cc(NC(C(=O)N2CCc3ccc(OC(F)(F)F)cc32)c2ccc(Cl)cc2OCCC(C)(C)C(=O)O)cc(-n2cncn2)c1` (racemic) [Compound 14, 4-(5-chloro-2-(1-((3-methoxy-5-(1H-1,2,4-triazol-1-yl)phenyl)amino)-2-oxo-2-(6-(trifluoromethoxy)indolin-1-yl)ethyl)phenoxy)-2,2-dimethylbutanoic acid], 24900; to `COc1cc(NC(C(=O)N2CCc3c(C)cc(OC(F)(F)F)cc32)c2ccc(Cl)cc2OCCO)cc(-n2cncn2)c1` (racemic) [Compound 10, 2-(4-chloro-2-(2-hydroxyethoxy)phenyl)-2-((3-methoxy-5-(1H-1,2,4-triazol-1-yl)phenyl)amino)-1-(4-methyl-6-(trifluoromethoxy)indolin-1-yl)ethanone], 26600.

In the case of `COc1cc(NC(C(=O)N2CCc3cc(OC)c(C(F)(F)F)cc32)c2ccc(F)cc2OCCO)cc(-n2cncn2)c1` (single isomer, unassigned) [Compound 2A], the SI was 43. Turning to `COc1cc(NC(C(=O)N2CCc3ccc(C(F)(F)F)cc32)c2ccc(F)cc2OCCO)cc(-n2cncn2)c1` (racemic) [Compound 1, 2-(4-fluoro-2-(2-hydroxyethoxy)phenyl)-2-((3-methoxy-5-(1H-1,2,4-triazol-1-yl)phenyl)amino)-1-(6-(trifluoromethyl)indolin-1-yl)ethanone], the SI is listed as 3350. To `COc1cc(NC(C(=O)N2CCc3cc(OC)c(OC(F)(F)F)cc32)c2ccc(Cl)cc2OCCO)cc(-n2cncn2)c1` (racemic) [Compound 8, 2-(4-chloro-2-(2-hydroxyethoxy)phenyl)-2-((3-methoxy-5-(1H-1,2,4-triazol-1-yl)phenyl)amino)-1-(5-methoxy-6-(trifluoromethoxy)indolin-1-yl)ethanone] belongs 4410; to `COc1cc(NC(C(=O)N2CCc3cc(OC)c(C(F)(F)F)cc32)c2ccc(Cl)cc2OCCO)cc(-n2cncn2)c1` (single isomer, unassigned) [Compound 5A], 275; to `COc1cc(NC(C(=O)N2CCc3cc(OC)c(OC(F)(F)F)cc32)c2ccc(Cl)cc2OCCO)cc(-n2cncn2)c1` (single isomer, unassigned) [Compound 8B], 47. Under `COc1cc(NC(C(=O)N2CCc3cc(F)c(OC(F)(F)F)cc32)c2ccc(Cl)cc2OCCO)cc(-n2cncn2)c1` (single isomer, unassigned) [Compound 9A] stands 17; under `COc1cc(NC(C(=O)N2CCc3ccc(C(F)(F)F)cc32)c2ccc(Cl)cc2OCCCC(=O)O)cc(-n2cncn2)c1` (single isomer, unassigned) [Compound 11A], 246; under `COc1cc(NC(C(=O)N2CCc3ccc(OC(F)(F)F)cc32)c2ccc(Cl)cc2OCCO)cc(-n2cncn2)c1` (single isomer, unassigned) [Compound 6B], 79. Under `COc1cc(NC(C(=O)N2CCc3cc(F)c(C(F)(F)F)cc32)c2ccc(Cl)cc2OCCO)cc(-n2cncn2)c1` (single isomer, unassigned) [Compound 7A] stands 26; under `COc1cc(NC(C(=O)N2CCc3cc(OC)c(C(F)(F)F)cc32)c2ccc(Cl)cc2OCCCC(=O)O)cc(-n2cncn2)c1` (racemic) [Compound 12, 4-(5-chloro-2-(1-((3-methoxy-5-(1H-1,2,4-triazol-1-yl)phenyl)amino)-2-(5-methoxy-6-(trifluoromethyl)indolin-1-yl)-2-oxoethyl)phenoxy)butanoic acid], 5660. On to `COc1cc(NC(C(=O)N2CCc3ccc(C(F)(F)F)cc32)c2ccc(Cl)cc2OCCCC(=O)O)cc(-n2cncn2)c1` (racemic) [Compound 11, 4-(5-chloro-2-(1-((3-methoxy-5-(1H-1,2,4-triazol-1-yl)phenyl)amino)-2-oxo-2-(6-(trifluoromethyl)indolin-1-yl)ethyl)phenoxy)butanoic acid], for which the SI is recorded as 53500. Take `COc1cc(NC(C(=O)N2CCc3c(C)cc(OC(F)(F)F)cc32)c2ccc(Cl)cc2OCCO)cc(-n2cncn2)c1` (single isomer, unassigned) [Compound 10A]: the SI is on record as 165. `COc1cc(NC(C(=O)N2CCc3c(C)cc(OC(F)(F)F)cc32)c2ccc(Cl)cc2OCCCC(=O)O)cc(-n2cncn2)c1` (single isomer, unassigned) [Compound 16A] returned an SI of 800. Take `COc1cc(NC(C(=O)N2CCc3cc(OC)c(C(F)(F)F)cc32)c2ccc(Cl)cc2OCCO)cc(-n2cncn2)c1` (racemic) [Compound 5, 2-(4-chloro-2-(2-hydroxyethoxy)phenyl)-2-((3-methoxy-5-(1H-1,2,4-triazol-1-yl)phenyl)amino)-1-(5-methoxy-6-(trifluoromethyl)indolin-1-yl)ethanone]: the SI was 11200. As for `COc1cc(NC(C(=O)N2CCc3ccc(C(F)(F)F)cc32)c2ccc(Cl)cc2OCCO)cc(-n2cncn2)c1` (single isomer, unassigned) [Compound 4A], the SI was determined as 6.4. To `COc1cc(NC(C(=O)N2CCc3cc(F)c(OC(F)(F)F)cc32)c2ccc(Cl)cc2OCCCC(=O)O)cc(-n2cncn2)c1` (racemic) [Compound 15, 4-(5-chloro-2-(2-(5-fluoro-6-(trifluoromethoxy)indolin-1-yl)-1-((3-methoxy-5-(1H-1,2,4-triazol-1-yl)phenyl)amino)-2-oxoethyl)phenoxy)butanoic acid] belongs 58700; to `COc1cc(NC(C(=O)N2CCc3ccc(C(F)(F)F)cc32)c2ccc(F)cc2OCCO)cc(-n2cncn2)c1` (single isomer, unassigned) [Compound 1A], 7.8; to `COc1cc(NC(C(=O)N2CCc3ccc(OC(F)(F)F)cc32)c2ccc(Cl)cc2OCCO)cc(-n2cncn2)c1` (racemic) [Compound 6, 2-(4-chloro-2-(2-hydroxyethoxy)phenyl)-2-((3-methoxy-5-(1H-1,2,4-triazol-1-yl)phenyl)amino)-1-(6-(trifluoromethoxy)indolin-1-yl)ethanone], 3370.

The values are drawn from US11083707B2, “Substituted indoline derivatives as dengue viral replication inhibitors” (JANSSEN PHARMACEUTICALS, INC., priority 2017, dated 2021).
